Compound potency records, mixed from different reports. Data source: NIAID ChemDB in PubChem.

Shared fields: whole-cell or culture tests; agent: Mycobacterium avium complex; endpoint: MIC

Neighbouring rows are from separate reports. Two numbers with a dash give a range or band.

| SMILES | strain | result |
|---|---|---|
| C/C(=N\NC(N)=S)c1cccnc1 | 100 | 0.5 µg/mL |
| CC(=O)NC[C@H]1CN(c2ccc(-c3ccncc3)cc2)C(=O)O1 | 5 isolates | 10–16 µg/mL |
| CC1(C)N=C(N)N=C(N)N1OCCCOc1cc(Cl)c(Cl)cc1Cl | DW24 | 2 µg/mL |
| COc1cc(NCc2cnc3nc(N)nc(N)c3c2C)cc(C(F)(F)F)c1 | NJ3404 | ≤0.13 µg/mL |
| CC[C@H]1OC(=O)[C@H](C)[C@@H](O[C@H]2C[C@@](C)(OC)[C@@H](OC(C)=O)[C@H](C)O2)[C@H](C)[C@@H](O[C@@H]2O[C@H](C)C[C@H](N(C)C)[C@H]2O)C(C)(O)C[C@@H](C)/C(=N\OCc2ccccc2)[C@H](C)[C@@H](O)[C@]1(C)O | 20092 (clarithromycin-resistant) | 25 µg/mL |
| CS(=O)(=O)c1ccc2c(c1)C(=O)c1nc3ccncc3c(=O)n1-2 | 19075 | >25 µg/mL |
| CCCCN1CCN(c2cc(=O)c3nc4c(oc3c2)c2c(=O)c3c(O)c(C)c5c(c34)=C(O)[C@@](C)(O/C=C/[C@H](OC)[C@@H](C)[C@@H](OC(C)=O)[C@H](C)[C@H](O)[C@H](C)[C@@H](O)[C@@H](C)/C=C/C=C(/C)C(=O)N2)O5)CC1 | 31F093T | 0.07 µg/mL |
| CC[C@H]1OC(=O)[C@H](C)[C@@H](O[C@H]2C[C@@](C)(OC)[C@@H](O)[C@H](C)O2)[C@H](C)[C@@H](O[C@@H]2O[C@H](C)C[C@H](N(C)C)[C@H]2O)[C@](C)(OC)C[C@@H](C)C(=O)[C@H](C)[C@@H](O)[C@]1(C)O | Isolate 90-0738 | 3 µg/mL |
| CO[C@H]1/C=C/O[C@@]2(C)Oc3c(C)c(=O)c4c(O)c(c5oc6cccc(O[Si](C)(C)C(C)(C)C)c6nc5c4c3C2=O)NC(=O)/C(C)=C\C=C\[C@H](C)[C@H](O)[C@@H](C)[C@@H](O)[C@@H](C)[C@H](OC(C)=O)[C@@H]1C | 31F093T | 5 µg/mL |
| CC[C@H]1OC(=O)[C@H](C)[C@@H](O[C@H]2C[C@@](C)(OC)[C@@H](O)[C@H](C)O2)[C@H](C)[C@@H](O[C@@H]2O[C@H](C)C[C@H](N(C)C)[C@H]2O)[C@](C)(O)C[C@@H](C)CN(C)[C@H](C)[C@@H](O)[C@]1(C)O | F | 8 µg/mL |
| CO[C@H]1/C=C/O[C@@]2(C)Oc3c(C)c(O)c4c(O)c(c5c(c4c3C2=O)NC2(CCN(CC(C)C)CC2)N=5)=NC(=O)/C(C)=C\C=C\[C@H](C)[C@H](O)[C@@H](C)[C@@H](O)[C@@H](C)[C@H](OC(C)=O)[C@@H]1C | K | 2 µg/mL |
| Cc1c(CNc2cc(F)ccc2F)cnc2nc(N)nc(N)c12 | NJ168 | ≤0.13 µg/mL |
| CCCCCCCCc1ccc2nc3n(c(=O)c2c1)-c1ccccc1C3=O | 19075 | ≤0.2 µg/mL |
| Cc1c(CNc2ccc3ncccc3c2)cnc2nc(N)nc(N)c12 | NJ211 | ≤0.13 µg/mL |
| CC[C@H]1OC(=O)[C@H](C)[C@@H](OC(=O)Cc2ccc[nH]2)[C@H](C)[C@@H](O[C@@H]2O[C@H](C)C[C@H](N(C)C)[C@H]2O)C(C)(O)C[C@@H](C)/C(=N\OCCCOc2ccccc2)[C@H](C)[C@@H](O)[C@]1(C)O | 20096 (clarithromycin-resistant) | 6.25 µg/mL |
| CCCCCCCCOC1O[C@@H](C(O)COC2O[C@@H](C(O)CO)[C@H](O)[C@H]2O)[C@H](O)[C@H]1O | NJ3404 | >128 µg/mL |
| Cc1cc(C)c2nc3n(c(=O)c2c1)-c1ccc(F)cc1C3=O | 19075 | 0.25 µg/mL |
| CCCCCCCCO[C@@H]1O[C@@H](C(CO[C@@H]2O[C@@H]([C@H](O)CO)[C@H](O)[C@H]2O)OCc2ccccc2)[C@H](OCc2ccccc2)[C@H]1OCc1ccccc1 | NJ3404 | >128 µg/mL |
| O=C1c2cc(F)ccc2-n2c1nc1ncccc1c2=O | 19075 | 5 µg/mL |
| CO[C@H]1/C=C/O[C@@]2(C)Oc3c(C)c(O)c4c(=O)c(c5oc6cc(N7CCN(C(C)C)CC7)cc(=O)c6nc5c4c3=C2O)NC(=O)/C(C)=C\C=C\[C@H](C)[C@H](O)[C@@H](C)[C@@H](O)[C@@H](C)[C@H](OC(C)=O)[C@@H]1C | 31F093T | 0.07 µg/mL |
| CS(=O)(=O)c1ccc2c(c1)C(=O)c1nc3ccncc3c(=O)n1-2 | 19075 | >25 µg/mL |
| O=C1c2cc(Br)ccc2-n2c1nc1ccncc1c2=O | 19075 | 0.25 µg/mL |
| CCCCCCCCO[C@@H]1O[C@H]([C@@H](COCc2ccccc2)O[C@H]2O[C@H](COC(=O)c3ccccc3)[C@@H](OC(=O)c3ccccc3)[C@@H]2OC(=O)c2ccccc2)[C@H](OCc2ccccc2)[C@H]1OCc1ccccc1 | NJ211 | >128 µg/mL |
| COc1cc(NCc2cnc3nc(N)nc(N)c3c2C)cc(OC)c1 | NJ3404 | ≤0.13 µg/mL |
| CCCCCCC(C)c1ccc2c(c1)C(=O)c1nc3ccncc3c(=O)n1-2 | 19075 | 0.06 µg/mL |
| CC[C@H]1OC(=O)[C@H](C)[C@@H](OC(=O)Cc2ccccn2)[C@H](C)[C@@H](O[C@@H]2O[C@H](C)C[C@H](N(C)C)[C@H]2O)C(C)(O)C[C@@H](C)/C(=N\OCCCOc2ccccc2)[C@H](C)[C@@H](O)[C@]1(C)O | 20092 (clarithromycin-resistant) | 25 µg/mL |
| Cc1c(CNc2cccc(Cl)c2)cnc2nc(N)nc(N)c12 | NJ168 | ≤0.13 µg/mL |
| Cc1c(F)c(N2CCNC(C)C2)cc2c1c(=O)c(C(=O)O)cn2C1CC1 | clinical strain 2 | 8 µg/mL |
| Cc1ccc2c(c1)C(=O)c1nc3ccncc3c(=O)n1-2 | 19075 | 1 µg/mL |
| O=C1c2cc(Br)ccc2-n2c1nc1ccncc1c2=O | 19075 | 0.25 µg/mL |
| CCCCCCCCO[C@@H]1O[C@@H](C(CO[C@@H]2O[C@@H](C(O)CO)[C@H](O)[C@H]2O)OC)[C@H](OC)[C@H]1OC | NJ168 | >128 µg/mL |
| CC(=O)OCCCC/C=C/c1ccc2nc3n(c(=O)c2c1)-c1ccc(Cl)cc1C3=O | 19075 | 0.5 µg/mL |
| CO[C@H]1/C=C/O[C@@]2(C)Oc3c(C)c(O)c4c(=O)c(c5oc6cc(N7CCN(CC(C)C)CC7)cc(=O)c6nc5c4c3=C2O)NC(=O)/C(C)=C\C=C\[C@H](C)[C@H](O)[C@@H](C)[C@@H](O)[C@@H](C)[C@H](OC(C)=O)[C@@H]1C | N-444 | 0.03 µg/mL |
| CCCCCCCCO[C@@H]1O[C@H]([C@@H](COCc2ccccc2)O[C@H]2O[C@H](CO)[C@@H](O)[C@@H]2O)[C@H](OCc2ccccc2)[C@H]1OCc1ccccc1 | NJ168 | >128 µg/mL |
| CN(C)c1ccc(O)c2c1C[C@H]1C[C@H]3[C@H](N(C)C)C(=O)C(C(N)=O)=C(O)[C@@]3(O)C(=O)C1=C2O | MO-1 | 64 µg/mL |
| COCc1c(CNc2cc(OC)c(OC)c(OC)c2)cnc2nc(N)nc(N)c12 | NJ3404 | >13 µg/mL |
| CC[C@H]1OC(=O)[C@H](C)[C@@H](O[C@H]2C[C@@](C)(OC)[C@@H](OC(C)=O)[C@H](C)O2)[C@H](C)[C@@H](O[C@@H]2O[C@H](C)C[C@H](N(C)C)[C@H]2OC(=O)NNc2ccccc2)C(C)(O)C[C@@H](C)/C(=N\OCCCC2CCCCC2)[C@H](C)[C@@H](O)[C@]1(C)O | 20092 (clarithromycin-resistant) | 0.78 µg/mL |
| COc1ccc(C(F)(F)F)cc1NCc1cnc2nc(N)nc(N)c2c1C | NJ168 | ≤0.13 µg/mL |
| CC[C@H]1OC(=O)[C@H](C)[C@@H](OC(=O)CCCCCc2ccccc2)[C@H](C)[C@@H](O[C@@H]2O[C@H](C)C[C@H](N(C)C)[C@H]2O)C(C)(O)C[C@@H](C)/C(=N\OCCCOc2ccccc2)[C@H](C)[C@@H](O)[C@]1(C)O | 20092 (clarithromycin-resistant) | 25 µg/mL |
| CC(C)N=C(N)/N=C(\N)NOCCCOc1cc(Cl)c(Cl)cc1Cl | 1960 | 32 µg/mL |
| CC[C@H]1OC(=O)[C@H](C)[C@@H](O[C@H]2C[C@@](C)(OC)[C@@H](O)[C@H](C)O2)[C@H](C)[C@@H](O[C@@H]2O[C@H](C)C[C@H](N(C)C)[C@H]2O)[C@](C)(OC)C[C@@H](C)C(=O)[C@H](C)[C@@H](O)[C@]1(C)O | MO-1 | 2 µg/mL |
| CCOC(=O)c1ccc2c(c1)C(=O)c1nc3ncccc3c(=O)n1-2 | 19075 | 5 µg/mL |
| CCCCCCC(=O)O[C@H]1[C@H](C)OC(O[C@H]2[C@H](C)[C@@H](O[C@@H]3O[C@H](C)C[C@H](N(C)C)[C@H]3O)C(C)(O)C[C@@H](C)/C(=N\OCCCOc3ccccc3)[C@H](C)[C@@H](O)[C@](C)(O)[C@@H](CC)OC(=O)[C@@H]2C)C[C@@]1(C)OC | 20096 (clarithromycin-resistant) | 3.13 µg/mL |
| COCCN1CCN(c2cc(=O)c3nc4c(oc3c2)c2c(=O)c3c(O)c(C)c5c(c34)=C(O)[C@@](C)(O/C=C/[C@H](OC)[C@@H](C)[C@@H](OC(C)=O)[C@H](C)[C@H](O)[C@H](C)[C@@H](O)[C@@H](C)/C=C/C=C(/C)C(=O)N2)O5)CC1 | 31F093T | 0.15 µg/mL |
| CCCOc1ccc(OCC)cc1NCc1cnc2nc(N)nc(N)c2c1C | NJ3404 | 0.25 µg/mL |
| CCCO/N=C1\[C@H](C)CC(C)(O)[C@H](O[C@@H]2O[C@H](C)C[C@H](N(C)C)[C@H]2O)[C@@H](C)[C@H](O[C@H]2C[C@@](C)(OC)[C@@H](OC(C)=O)[C@H](C)O2)[C@@H](C)C(=O)O[C@H](CC)[C@@](C)(O)[C@H](O)[C@H]1C | 20039 (clarithromycin-susceptible) | >50 µg/mL |
| O=C1c2cc(C(F)(F)F)ccc2-n2c1nc1ccncc1c2=O | 19075 | 0.5 µg/mL |
| CCCCCCCCO[C@H]1OC([C@@H](COC)O[C@H]2O[C@H]([C@@H](O)CO)[C@@H](O)[C@@H]2O)[C@@H](OC)[C@@H]1OC | NJ168 | >12.8 µg/mL |
| CC[C@H]1OC(=O)[C@H](C)[C@@H](O[C@H]2C[C@@](C)(OC)[C@@H](OC(C)=O)[C@H](C)O2)[C@H](C)[C@@H](O[C@@H]2O[C@H](C)C[C@H](N(C)C)[C@H]2OC(=O)NNCc2ccccc2OC)C(C)(O)C[C@@H](C)/C(=N\OCCCC2CCCCC2)[C@H](C)[C@@H](O)[C@]1(C)O | 20096 (clarithromycin-resistant) | 0.39 µg/mL |

For reference, 4 entries again:

SMILES	strain	result
CC[C@H]1OC(=O)[C@H](C)[C@@H](O[C@H]2C[C@@](C)(OC)[C@@H](OC(C)=O)[C@H](C)O2)[C@H](C)[C@@H](O[C@@H]2O[C@H](C)C[C@H](N(C)C)[C@H]2OC(=O)NNCc2ccccc2OC)C(C)(O)C[C@@H](C)/C(=N\OCCCC2CCCCC2)[C@H](C)[C@@H](O)[C@]1(C)O	20096 (clarithromycin-resistant)	0.39 µg/mL
COc1cc(NCc2cnc3nc(N)nc(N)c3c2C)cc(OC)c1	NJ3404	≤0.13 µg/mL
CC1(C)N=C(N)N=C(N)N1OCCCOc1cc(Cl)c(Cl)cc1Cl	DW24	2 µg/mL
CCCCCCCCO[C@H]1OC([C@@H](COC)O[C@H]2O[C@H]([C@@H](O)CO)[C@@H](O)[C@@H]2O)[C@@H](OC)[C@@H]1OC	NJ168	>12.8 µg/mL